Conditions: 2 nmol 13-QY9-6 in 45μg monocyte extract, in 10 minutes, mass spectrometry

Compound: CSCC[C@H](NC(=O)[C@@H]1CCCN1C(=O)[C@H](CCCNC(=N)N)NC(=O)[C@H](CC(C)C)NC(=O)[C@@H]1CCCN1C(=O)[C@@H](NC(=O)[C@H](CCC(N)=O)NC(=O)[C@@H]1CCCN1C(=O)[C@@H](NC(=O)[C@@H](NC(=O)[C@@H]1CCCN1C(=O)[C@H](Cc1ccccc1)NC(=O)CNC(=O)[C@@H](NC(=O)[C@H](CCC(=O)O)NC(=O)[C@H](CCC(=O)O)NC(=O)[C@H](CCC(=O)O)NC(=O)[C@H](CCC(=O)O)NC(=O)[C@H](CCC(N)=O)NC(=O)[C@H](C)N)C(C)C)C(C)C)[C@@H](C)O)C(C)C)C(=O)N[C@H](C(=O)N[C@@H](Cc1ccc(O)cc1)C(=O)N[C@@H](CCCCN)C(=O)N[C@@H](C)C(=O)N[C@@H](C)C(=O)N[C@H](C(=O)N[C@@H](CC(=O)O)C(=O)N[C@@H](CC(C)C)C(=O)O)C(C)C)[C@@H](C)O [13-QY9-6]
- yield of 8-25aa peptides (share of degradation products): 60%

From article PMC4201977 (Journal of immunology (Baltimore, Md. : 1950), 2014)
